A mixed list of measured activities; the numbers were collected in NIAID ChemDB.

All rows: tests in culture

Two numbers with a dash give a range or band. Zones are inhibition diameters on agar. Blank or dashed fields: not listed here. Neighbouring rows are from separate reports. MIC50, MIC90 and the like: level of inhibition, or share of isolates inhibited. Percent inhibition refers to the dose given; in toxicity tests it is the harm to the cells.

smiles	changes	conditions	organism	endpoint	strain	read by	dose	value
O=C(/C=C/c1ccc(OCCCCCCCCCCOc2ccc(/C=C/C(=O)c3ccccc3)cc2)cc1)c1ccccc1			Aspergillus janus	MIC		broth dilution		16 µg/mL
CCCCCOc1ccc(-c2cc(-c3ccc(C(=O)N[C@H]4C[C@@H](O)[C@@H](O)NC(=O)[C@@H]5[C@@H](O)[C@@H](C)CN5C(=O)[C@H]([C@H](O)CC(N)=O)NC(=O)[C@H]([C@H](O)[C@@H](O)c5ccc(O)c(OS(=O)(=O)O)c5)NC(=O)[C@@H]5C[C@@H](O)CN5C(=O)[C@H]([C@@H](C)O)NC4=O)cc3)no2)cc1			Aspergillus terreus	MIC50		broth dilution		0.016 µg/mL
Cc1ccc(C(C)C)cc1O			Aspergillus fumigatus	MLC	F05			0.32 µg/mL
CCNC(=S)N/N=C/c1c[nH]c2ccccc12			Aspergillus parasiticus	MIC	CMT 0334	broth dilution		500 µg/mL
O=C1S/C(=C\c2ccoc2)C(=O)N1CC(O)(Cn1nccn1)c1ccc(F)cc1F			Aspergillus glaucus	MIC				>100 µg/mL
Fc1ccc(-c2n[nH]c(COc3nc(C(F)(F)F)nc4ccccc34)n2)cc1			Aspergillus flavus	MIC100	MTCC 277			25 µg/mL
c1ccc(C2=NN(c3ccccc3)C(c3ccc(OCCOc4ccc(C5CC(c6ccccc6)=NN5c5ccccc5)cc4)cc3)C2)cc1			Aspergillus janus	MIC		broth dilution		16 µg/mL
COc1ccccc1/C=C1\SC(c2ccc(F)cc2)N(NC(=O)c2ccc(-n3c(-c4ccc(C)cc4)nc4ccccc4c3=O)cc2)C1=O			Aspergillus clavatus	MIC100	MTCC 1323			1000 µg/mL
C[C@H]1[C@H](O)[C@@H](C)/C=C/C=C/C=C/C=C/C=C/C=C/C=C/[C@H](O[C@@H]2O[C@H](C)[C@@H](O)[C@H](N)[C@@H]2O)C[C@@H]2O[C@](O)(C[C@@H](O)C[C@@H](O)CC[C@H](O)[C@@H](O)C[C@@H](O)CC(=O)O[C@H]1C)C[C@H](O)[C@H]2C(=O)O			Aspergillus nidulans	MIC90		broth dilution		14 µg/mL
Cc1ccc2c(c1)C(C1SCC(=O)N1NC(=O)N1c3ccccc3C=Cc3ccccc31)C(c1ccccc1)=N2			Aspergillus oryzae	zone	MTCC-3567	agar diffusion	1000 µg/mL	5 mm
Cc1ccc(-n2cc(-c3ccc([N+](=O)[O-])cc3)c(-c3ccn[nH]3)n2)cc1			Aspergillus fumigatus	zone		agar diffusion / agar	1.25 mg/mL	3 mm
C[C@H]1[C@H](O)[C@@H](C)/C=C/C=C/C=C/C=C/C=C/C=C/C=C/[C@H](O[C@@H]2O[C@H](C)[C@@H](O)[C@H](N)[C@@H]2O)C[C@@H]2O[C@](O)(C[C@@H](O)C[C@@H](O)CC[C@H](O)[C@@H](O)C[C@@H](O)CC(=O)O[C@H]1C)C[C@H](O)[C@H]2C(=O)O			Aspergillus ochraceus	MIC	96919	broth dilution		0.25 µg/mL
C[C@@H](c1nc(-c2ccc(C#N)cc2)cs1)[C@](O)(Cn1cncn1)c1cc(F)ccc1F			Aspergillus lentulus	MIC90		broth dilution		0.25 µg/mL
CSC1=NC(c2ccc(O)cc2)C(C#N)=C(N)N1			Aspergillus niger	zone	MTCC 282	agar diffusion	25 µg/mL	14 mm
C[C@@H]1C/C=C/C=C/C=C/C=C/[C@H](OC2O[C@H](C)[C@@H](O)[C@H](N)[C@@H]2O)CC2O[C@](O)(C[C@@H](O)C[C@H]3O[C@@H]3/C=C/C(=O)O1)C[C@H](O)[C@H]2C(=O)O			Aspergillus flavus	MIC50	Species complex			32 µg/mL
O=C1S/C(=C\c2cccnc2)C(=O)N1CC(O)(Cn1nccn1)c1ccc(F)cc1F			Aspergillus glaucus	MIC				>100 µg/mL
C[C@H]1[C@H](O)[C@@H](C)/C=C/C=C/C=C/C=C/C=C/C=C/C=C/[C@H](O[C@@H]2O[C@H](C)[C@@H](O)[C@H](N)[C@@H]2O)C[C@@H]2O[C@](O)(C[C@@H](O)C[C@@H](O)CC[C@H](O)[C@@H](O)C[C@@H](O)CC(=O)O[C@H]1C)C[C@H](O)[C@H]2C(=O)O		48 h	Aspergillus terreus	MIC100	ATCC 10690	broth dilution		1 µg/mL
CCCCCCCCOC(=O)[C@]1(O)C[C@@H](O)[C@@H](O)[C@H](OC(=O)/C=C/c2ccc(O)c(O)c2)C1			Aspergillus parasiticus	MIC	Speare UMIP 1142.76			<500 µg/mL
Cc1ccc(C2c3c(nc(=S)[nH]c3N)Oc3c2c(C)nn3-c2ccccc2)cc1			Aspergillus clavatus	MIC	MTCC 1323			>1000 µg/mL
Cc1cc(C=Nc2ccc(N=Cc3cc(C)cc(/C=N/Nc4nc5ccccc5s4)c3O)cc2)c(O)c(/C=C/Nc2nc3ccccc3s2)c1			Aspergillus niger	inhibition		turbidity	50 µg/mL	39.62%
Cc1ccc(-n2cc(-c3ccc([N+](=O)[O-])cc3)c(-c3ccnc4nncn34)n2)cc1			Aspergillus fumigatus	zone		agar diffusion / agar	1.25 mg/mL	3 mm
COc1cc(/C=C/C(C)=O)ccc1O			Aspergillus ochraceus	MIC	MTCC 4643	broth dilution		911 µM
Cc1nc2ccccc2n(CC(=O)NN2C(=O)CSC2c2ccccc2Cl)c1=O			Aspergillus nidulans	zone			50 µg/mL	7 mm
CCCCNC(=S)N/N=C/C=C/c1ccccc1			Aspergillus parasiticus	MIC	CMT 0334	broth dilution		500 µg/mL
CS(=O)(=O)c1nc(N)c(C#N)c(-c2ccccc2Cl)n1			Aspergillus niger	zone	MTCC 282	agar diffusion	100 µg/mL	20 mm
Cc1ccc(-n2cc(-c3ccc([N+](=O)[O-])cc3)c(-c3ccon3)n2)cc1			Aspergillus fumigatus	zone		agar diffusion / agar	5 mg/mL	22 mm
CCCCCCNC(=S)N/N=C/c1ccnc2ccccc12			Aspergillus parasiticus	MIC	CMT 0334	broth dilution		500 µg/mL
Cc1nn(-c2ccccc2)c2c1C(c1ccccc1Cl)C(C#N)=C(N)O2			Aspergillus clavatus	MIC	MTCC 1323			>1000 µg/mL
Cn1nnnc1SCC(=O)N/N=c1/scc(-c2ccc(Br)cc2)n1-c1ccccc1			Aspergillus parasiticus	MIC	NRRL 465	broth dilution		19.3 µg/mL
C/C(=N\NC(=S)Nc1cccc([N+](=O)[O-])c1)c1c(O)ccc2c(C)cc(=O)oc12			Aspergillus niger	inhibition		agar diffusion / agar	50 µg/mL	76.53%
CC(C)=CCCC(C)CCO			Aspergillus parasiticus	MIC	TISTR 3018	broth dilution		3600 µg/mL
Cc1nn(-c2ccccc2)c2c1C(c1cccc(Cl)c1)C(C#N)=C(N)O2			Aspergillus clavatus	MIC	MTCC 1323			>1000 µg/mL
CC(=O)N1CCN(c2ccc(OC[C@H]3CO[C@](Cn4ccnc4)(c4ccc(Cl)cc4Cl)O3)cc2)CC1			Aspergillus versicolor	MFC	ATCC 11730	broth dilution		500 µg/mL
O=C(/C=C/c1ccc(OCCCCCCCCOc2ccc(/C=C/C(=O)c3ccccc3)cc2)cc1)c1ccccc1			Aspergillus janus	MIC		broth dilution		16 µg/mL
Cc1ccc(-c2nc3ccccc3c(=O)n2-c2ccc(C(=O)NN3C(=O)/C(=C/c4ccc(Cl)cc4)SC3c3ccc(F)cc3)cc2)cc1			Aspergillus clavatus	MIC100	MTCC 1323			1000 µg/mL
O=C1S/C(=C\c2ccc(Cl)cc2)C(=O)N1CC(O)(Cn1nccn1)c1ccc(F)cc1F			Aspergillus glaucus	MIC				>100 µg/mL
Cc1nc(OCc2nc(-c3ccc(Cl)cc3)n[nH]2)c2ccccc2n1			Aspergillus flavus	MIC100	MTCC 277			50 µg/mL
Cc1ccc(NC(=S)N/N=C/c2c[nH]c3ccccc23)cc1			Aspergillus parasiticus	MIC	CMT 0334	broth dilution		500 µg/mL
O=C(NN1C(=O)CSC1C1C(c2ccccc2)=Nc2ccccc21)N1c2ccccc2C=Cc2ccccc21			Aspergillus terreus	zone	MTCC-1782	agar diffusion	750 µg/mL	6 mm
Cc1nn(-c2ccccc2)c2c1C(c1ccccc1)c1c(nc(=O)[nH]c1N)O2			Aspergillus clavatus	MIC	MTCC 1323			>1000 µg/mL
CCCCCCNC(=S)N/N=C/c1c[nH]c2ccccc12			Aspergillus parasiticus	MIC	CMT 0334	broth dilution		500 µg/mL
C[C@@H](c1ncncc1F)[C@](O)(Cn1cncn1)c1ccc(F)cc1F			Aspergillus terreus	MIC	11	broth dilution		1 µg/mL
O=C(/C=C/c1ccc(OCCCCCCOc2ccc(/C=C/C(=O)c3ccccc3)cc2)cc1)c1ccccc1			Aspergillus janus	MIC		broth dilution		8 µg/mL
CSC1=NC(c2ccccc2)C(C#N)=C(N)N1			Aspergillus niger	zone	MTCC 282	agar diffusion	100 µg/mL	18 mm
Cc1cc(O)c2c(c1)C(=O)c1cc(O)c(O)c(O)c1C2=O			Aspergillus nidulans	MIC100		visual reading		142–284 µM
COc1ccc(-c2nc(S(C)(=O)=O)nc(N)c2C#N)cc1			Aspergillus niger	zone	MTCC 282	agar diffusion	50 µg/mL	19 mm
CCC(C)n1ncn(-c2ccc(N3CCN(c4ccc(OC[C@H]5CO[C@](Cn6cncn6)(c6ccc(Cl)cc6Cl)O5)cc4)CC3)cc2)c1=O	mpkC		Aspergillus fumigatus	inhibition	AF293	broth dilution	64 µg/mL	99.99%
S=C(N/N=C/c1c[nH]c2ccccc12)Nc1ccccc1			Aspergillus parasiticus	MIC	CMT 0334	broth dilution		500 µg/mL
O=c1c(N2CCOCC2)c(N2CCN(S(=O)(=O)Cc3ccccc3)CC2)cnn1-c1ccccc1			Aspergillus terreus	MIC	ND125	broth dilution		25 µg/mL
O=C(NN=CC1C(c2ccccc2)=Nc2ccccc21)N1c2ccccc2C=Cc2ccccc21			Aspergillus terreus	zone	MTCC-1782	agar diffusion	500 µg/mL	8 mm
C[C@H]1[C@H](O)[C@@H](C)/C=C/C=C/C=C/C=C/C=C/C=C/C=C/[C@H](O[C@@H]2O[C@H](C)[C@@H](O)[C@H](N)[C@@H]2O)C[C@@H]2O[C@](O)(C[C@@H](O)C[C@@H](O)CC[C@H](O)[C@@H](O)C[C@@H](O)CC(=O)O[C@H]1C)C[C@H](O)[C@H]2C(=O)O			Aspergillus fumigatus	MEC	Isolate AF210			2 µg/mL
c1ccc(C2=NN(c3ccccc3)C(c3ccc(OCCCCCCCCCCOc4ccc(C5CC(c6ccccc6)=NN5c5ccccc5)cc4)cc3)C2)cc1			Aspergillus janus	MIC		broth dilution		8 µg/mL
Cc1ccc(-c2nc3ccccc3c(=O)n2-c2ccc(C(=O)NN3C(=O)/C(=C/c4ccc(Br)cc4)SC3c3ccc(F)cc3)cc2)cc1			Aspergillus clavatus	MIC100	MTCC 1323			500 µg/mL
CCOC(=O)c1ccc(-c2nn(-c3ccccc3)cc2-c2ccc([N+](=O)[O-])cc2)nc1C			Aspergillus fumigatus	zone		agar diffusion / agar	5 mg/mL	6 mm
CC(C)C[C@H](N)C(=O)O			Aspergillus terreus	MFC100	MRCM 25730	broth dilution		>18000 µg/mL
COc1cc(-c2n[nH]c(COc3nc(C(F)(F)F)nc4ccccc34)n2)cc(OC)c1OC			Aspergillus flavus	MIC100	MTCC 277			12.5 µg/mL
NN(Cc1ccccc1)CC(O)(Cn1cncn1)c1ccc(F)cc1F			Aspergillus terreus	MIC80	ATCC 28301			2 µg/mL
N=C(N)c1ccc(OCCCCCCOc2ccc(C(=N)N)cc2)cc1			Aspergillus terreus	MIC		agar diffusion / agar		33 µg/mL
CCCC[C@@H](C)/C=C(C)/C=C(\C)C(=O)N/C(=C/[C@@](C)(O)/C=C/C=C/C=C/C(=O)NC1=C(O)CCC1=O)C(=O)[C@@H]1CO1			Aspergillus terreus	MIC	1	broth dilution		200 µM
C[C@H]1[C@H](O)[C@@H](C)/C=C/C=C/C=C/C=C/C=C/C=C/C=C/[C@H](O[C@@H]2O[C@H](C)[C@@H](O)[C@H](N)[C@@H]2O)C[C@@H]2O[C@](O)(C[C@@H](O)C[C@@H](O)CC[C@H](O)[C@@H](O)C[C@@H](O)CC(=O)O[C@H]1C)C[C@H](O)[C@H]2C(=O)O		48 h	Aspergillus terreus	MIC	NBRC 6346	broth dilution		4 µg/mL
CCC(C)n1ncn(-c2ccc(N3CCN(c4ccc(OC[C@H]5CO[C@](Cn6cncn6)(c6ccc(Cl)cc6Cl)O5)cc4)CC3)cc2)c1=O			Aspergillus fumigatus	Geometric mean MFC	94 isolates			1.57 µg/mL
Cc1cccc(/C=N/NC(N)=S)n1			Aspergillus parasiticus	MIC	MCT 00334	broth dilution		500 µg/mL
CS(=O)(=O)c1nc(N)c(C#N)c(-c2ccccc2)n1			Aspergillus niger	zone	MTCC 282	agar diffusion	50 µg/mL	19 mm
OO			Aspergillus fumigatus	MIC99	AF293	agar		8000 µM
C[C@H]1[C@H](O)[C@@H](C)/C=C/C=C/C=C/C=C/C=C/C=C/C=C/[C@H](O[C@@H]2O[C@H](C)[C@@H](O)[C@H](N)[C@@H]2O)C[C@@H]2O[C@](O)(C[C@@H](O)C[C@@H](O)CC[C@H](O)[C@@H](O)C[C@@H](O)CC(=O)O[C@H]1C)C[C@H](O)[C@H]2C(=O)O			Aspergillus terreus	MFC	Clinical isolate	XTT		8–16 µg/mL
CCOC(=O)C1=NN(c2ccccc2)C2=Nc3nccc(-c4nn(-c5ccccc5)cc4-c4ccc([N+](=O)[O-])cc4)c3C(=O)C12			Aspergillus fumigatus	zone		agar diffusion / agar	5 mg/mL	19 mm
N#Cc1ccc(Nc2nc(Oc3cccc4cccnc34)nc(N3CCN(c4ncccn4)CC3)n2)cc1C(F)(F)F			Aspergillus nidulans	zone	MTCC 282	agar diffusion / agar	100 µg/disc	24 mm